The source of these data is publication PMC7952403 (Nature Communications, 2021).

Experiment [1] deals with T1, SARS-CoV-2 S1-S2 spike ectodomain with 6xHis tag, produced in High Five cells (SARS-CoV-2 Wuhan-Hu-1 (MN908947 / …, UniProt P0DTC2, […] | “GSAS” substitution at the furin site, residues 682–685).
T1 construct: also called S1-S2-His; S1-S2 trimer; not shown: 6xHis, C-terminal, kept
In words: ELISA. To be noted: both partners purified. On the technique in general: In an ELISA, binding on a coated surface is turned into a signal by an enzyme label.

Experiment [2] has as its target T1, SARS-CoV-2 S1-S2 spike ectodomain with …. The experiment in a line: flow cytometry on cells. To be noted: both partners purified. Background: Flow cytometry measures light scatter and fluorescence of single cells or particles in a stream.

B1: STE72-2G4 scFv-Fc (scFv, V domains shown)
VH: QVQLVQSGAEVKKPGASVKVSCKASGYTFTSYGISWVRQAPGQGLEWMGWISAYNGNTNYAQKLQGRVTMTTDTSTSTAYMELRSLRSDDTAVYYCARFFYDSSGYSTDYWGQGTLVTVSS
VL: ETTLTQSPAFMSVTPGDRAILSCRASQSVDSHLAWYHQKPGQPPRLLIYGASTRATGIPARFSGSRSGTEFTLTISGLQSEDLGVYYCQQYASWPPGYNFGQGTKLEIK
notes: also called scFv-hFc; source: Expi293F, transient transfection, purified (Protein A)
As a reminder, the EC50 is the midpoint of the concentration-response curve. High values mean a need for much substance, low ones an effect from little substance. For orientation: IC50 means the midpoint of a concentration-inhibition curve. With B1, the EC50 in experiment [1] was determined as 0.3 nM. Inhibition in experiment [2] was half-maximal at 37 nM (IC50).

B2: STE73-6C1 scFv-Fc (scFv, V domains shown)
VH: QVQLVQSGGGVVQPGRSLRLSCAASGFTFSSYAMHWVRQAPGKGLEWVAVISYDGSNKYYADSVKGRFTISRDNSKNTLYLQMNSLRAEDTAVYYCARSYVGGMDVWGQGTTVTVSS
VL: QLVLTQSPSVSGAPGQSVTISCTGTDSNIGAGYNVHWYQQLPGAAPKLIISYTDNRPSGVPDRFSGSKSGTSASLAITGLQAEDEADYYCQSSDRTLVGSLFGTGTKVTVL
notes: as for B1
For B2, in experiment [1], it took 1.8 nM to reach a half-maximal effect (EC50). The midpoint of inhibition in experiment [2], the IC50, lay at 97 nM.

B3: STE73-6C1 IgG (antibody, V domains shown)
VH: QVQLVQSGGGVVQPGRSLRLSCAASGFTFSSYAMHWVRQAPGKGLEWVAVISYDGSNKYYADSVKGRFTISRDNSKNTLYLQMNSLRAEDTAVYYCARSYVGGMDVWGQGTTVTVSS
VL: QLVLTQSPSVSGAPGQSVTISCTGTDSNIGAGYNVHWYQQLPGAAPKLIISYTDNRPSGVPDRFSGSKSGTSASLAITGLQAEDEADYYCQSSDRTLVGSLFGTGTKVTVL
notes: source: Expi293F, transfected, purified (Protein A); copies: 2 + 2
In the case of B3, the EC50 in experiment [1] turned out to be 34 nM.

B4: STE73-9G3 scFv-Fc (scFv, V domains shown)
VH: QVQLQESGGGLVQPGGSLRLSCAASGFTFSSYAMSWVRQAPGKGLEWVSAISGSGGSTYYADSVKGRFTISRDNSKNTLYLQMNSLRAEDTAVYYCARDLVLGSGSSNDWGRGTLVTVSS
VL: QPVLTQPPSVSGAPGQSVTISCTGTDSNIGAGYNVHWYQQLPGAAPKLIISYTDNRPSGVPDRFSGSKSGTSASLAITGLQAEDEADYYCQSSDRTLVGSLFGTGTKVTVL
notes: as for B1
As to B4, a half-maximal effect in experiment [1] (EC50) was put at 0.9 nM. The molecule also came in with a concentration for half-maximal inhibition (IC50) in experiment [2] of 40 nM.

B5: STE73-9G3 IgG (antibody, V domains shown)
VH: QVQLQESGGGLVQPGGSLRLSCAASGFTFSSYAMSWVRQAPGKGLEWVSAISGSGGSTYYADSVKGRFTISRDNSKNTLYLQMNSLRAEDTAVYYCARDLVLGSGSSNDWGRGTLVTVSS
VL: QPVLTQPPSVSGAPGQSVTISCTGTDSNIGAGYNVHWYQQLPGAAPKLIISYTDNRPSGVPDRFSGSKSGTSASLAITGLQAEDEADYYCQSSDRTLVGSLFGTGTKVTVL
notes: as for B3
Molecule B5 had an EC50 in experiment [1] of 2.3 nM. In other words, the single-digit nanomolar range.

B6: STE73-2C2 scFv-Fc (scFv, V domains shown)
VH: QVQLVESGGGLVQPGGSLRLSCAASGITVSSNYMSWVRQAPGKGLEWVSVIYSGGSTFYADSVKGRFTISRDNSKNTLYLQMNSLRAEDTGVYYCARGHDNLDYWGQGTLVTVSS
VL: LPVLTQPHSVSESPGKTVIISCTGSSDSIASNYVQWYQQRPGSAPTTVIYEDNKRPSGVPDRFSGSTDSSSNSASLTISGLKTEDEAEYYCQSYDSNNHWVFGGGTKLTVL
notes: as for B1
In experiment [1], B6 displayed an EC50 of 7.8 nM. Moreover, the IC50 in experiment [2] amounted to 59 nM.

B7: STE72-1B6 scFv-Fc (scFv, V domains shown)
VH: QVKLVQSGGGLVQPGGSLRLSCAASGFTFSSYAMSWVRQAPGKGLEWVSGISGSGGSTYYADSVKGRFTISRDNSKNTLYLQVNSLRAEDTAVYYCAKAPYGDFRGLWYFDYWGQGTLVTVSS
VL: DIVMTQSPFSVSASVGDRVTISCRASQDIRSWLAWYQQKPGKAPQLLIYDASSLQSGVPSRFSGSGSGTDFTLTISSLQPEDFATYYCQQADSVPLTFGGGTKVEIQ
notes: as for B1
The molecule B7 yielded an EC50 in experiment [1] of 1.4 nM. Moreover, in experiment [2], the IC50 was found to be 240 nM.

B8: STE72-1B6 IgG (antibody, V domains shown)
VH: QVKLVQSGGGLVQPGGSLRLSCAASGFTFSSYAMSWVRQAPGKGLEWVSGISGSGGSTYYADSVKGRFTISRDNSKNTLYLQVNSLRAEDTAVYYCAKAPYGDFRGLWYFDYWGQGTLVTVSS
VL: DIVMTQSPFSVSASVGDRVTISCRASQDIRSWLAWYQQKPGKAPQLLIYDASSLQSGVPSRFSGSGSGTDFTLTISSLQPEDFATYYCQQADSVPLTFGGGTKVEIQ
notes: as for B3
In the case of B8, the EC50 in experiment [1] is 2.4 nM.

B9: STE73-2G8 scFv-Fc (scFv, V domains shown)
VH: QVQLVQSGGGLVKPGGSLRLSCAASGITVSSNYMSWVRQAPGKGLEWVSILYSGGTTFYTDSVKGRFTISRDNSKNTLHLQMNSLRAEDTAVYYCARWSGTYYDYWGQGTLVTVSS
VL: SSELTQDPAVSVALGQTVRITCQGDSLRSYYASWYQQKPGQAPVLVIYGKNNRPSGIPDRFSGSSSGNTASLTITGAQAEDEADYYCNSRDSTNDPVLFGAGTKLTVL
notes: as for B1
In turn, B9 yielded an EC50 in experiment [1] of 0.4 nM. The molecule also came in with an IC50 in experiment [2] of 23 nM.

B10: STE73-2G8 IgG (antibody, V domains shown)
VH: QVQLVQSGGGLVKPGGSLRLSCAASGITVSSNYMSWVRQAPGKGLEWVSILYSGGTTFYTDSVKGRFTISRDNSKNTLHLQMNSLRAEDTAVYYCARWSGTYYDYWGQGTLVTVSS
VL: SSELTQDPAVSVALGQTVRITCQGDSLRSYYASWYQQKPGQAPVLVIYGKNNRPSGIPDRFSGSSSGNTASLTITGAQAEDEADYYCNSRDSTNDPVLFGAGTKLTVL
notes: as for B3
Regarding B10, in experiment [1], the EC50 is 2.8 nM.

B11: STE73-2B2 scFv-Fc (scFv, V domains shown)
VH: QVQLVQSGAEVKKPGASVKVSCKASGYTFTGYYMHWVRQAPGQGLEWMGWINPNSGGTNYAQKFQGRVTITRDTSASTAYMELSSLRSEDTAVYYCARVSGWYFGAFDIWGQGTMVTVSS
VL: LPVLTQPHSLSESPGKTVNISCTGSSGSIASNYVQWYQQRPGSAPTTVIYEDSHRPSGVPDRFSGSIDSSSNSASLSISGLKTEDEADYYCQSYDSSNNQWVFGGGTKLTVL
notes: as for B1
As for B11, the response in experiment [1] was half-maximal at 0.3 nM (EC50). In addition, the IC50 in experiment [2] came out at 63 nM.

B12: STE70-1E12 scFv-Fc (scFv, V domains shown)
VH: QMQLVQSGAEVKKPGASVKVSCKASGYTFTGYYMHWVRQAPGQGLEWMGRINPNSGGTNYAQKFQGRVTMTRDTSTSTAYMELSRLRSDDTAVYYCVRDGYNFNNWFDPWGQGTLVTVSS
VL: NFMLTQPHSVSGSPGETITISCTGSGGSIASNYVQWYRQRPGSAPTIVIYEDTQRPSGVPDRFSGSIDSSSNSASLTISGLKTEDEADYYCQSSESTNHVMFGGGSKLTVL
notes: as for B1
In experiment [1], B12 gave an EC50 of 1.1 nM. Also, the IC50 in experiment [2] is 180 nM.

B13: STE70-1E12 IgG (antibody, V domains shown)
VH: QMQLVQSGAEVKKPGASVKVSCKASGYTFTGYYMHWVRQAPGQGLEWMGRINPNSGGTNYAQKFQGRVTMTRDTSTSTAYMELSRLRSDDTAVYYCVRDGYNFNNWFDPWGQGTLVTVSS
VL: NFMLTQPHSVSGSPGETITISCTGSGGSIASNYVQWYRQRPGSAPTIVIYEDTQRPSGVPDRFSGSIDSSSNSASLTISGLKTEDEADYYCQSSESTNHVMFGGGSKLTVL
notes: as for B3
In the case of B13, a half-maximal response in experiment [1] (EC50) required 0.8 nM.

B14: STE72-4E12 scFv-Fc (scFv, V domains shown)
VH: QVQLVQSGAEVKKPGASVKVSCKASGYTFTSYYMHWVRQAPGQGLEWMGIINPSGGSTSYAQKFQGRVTMTRDTSTSTVYMELSSLRSEDTAVYYCARDLSGGLDYWGQGTLVTVSS
VL: ETTLTQSPATLSVSPGERVTLACRAGQTISSKLAWYRQKPGQAPSLLIYDASTRATGVPARFSGSGSGTEFTLTISSLQSEDFAVYYCQQYSDWPPTFGQGTKVEIK
notes: as for B1
B14 returned an EC50 in experiment [1] of 3.7 nM.

B15: STE72-4E12 IgG (antibody, V domains shown)
VH: QVQLVQSGAEVKKPGASVKVSCKASGYTFTSYYMHWVRQAPGQGLEWMGIINPSGGSTSYAQKFQGRVTMTRDTSTSTVYMELSSLRSEDTAVYYCARDLSGGLDYWGQGTLVTVSS
VL: ETTLTQSPATLSVSPGERVTLACRAGQTISSKLAWYRQKPGQAPSLLIYDASTRATGVPARFSGSGSGTEFTLTISSLQSEDFAVYYCQQYSDWPPTFGQGTKVEIK
notes: as for B3
In experiment [1], B15 gave an EC50 of 1.7 nM.
